# Experimental data reported in patent publication US20050053680A1, “Pediculicidal compound” (priority 2002, published 2005).
# Tested on: Human lice, Pediculus humanus
# Conditions: Table 7
smiles,measurement,setting,value
OCCN(CCO)CCO,Number of lice Moribund,single ingredients in water vehicle,4
same,Number of lice Killed,"single ingredients in water vehicle (Dehyquart ACA 1.00%, Nettle Extract 1.00%, Thyme Extract 1.00%, Nipasept 0.15%, Triethanolamine 0.06%), 19-21 lice",5
same,Mortality % Total,"single ingredients in water vehicle, Water 20",43%
same,Number of eggs,"single ingredients in water vehicle, eggs laid, Water 21",16
